The subject of this test is Staphylococcus aureus strain SAU1018. As to the kind of experiment: Mouse peritonitis infection model.

Turning to contezolid acefosamil [Product form 3], where the note is “administered orally, Staphylococcus aureus”, the ED50 result is reported as “about 8 mg/kg”. Besides, the “ED50 (effective dose for 50% animal survival)” value (intravenous injection of saline solution, S. aureus SAU1018) was 10 mg/kg.

The values above are taken from patent publication US12180242B2, “Pharmaceutical crystal of contezolid acefosamil, preparation method therefor, and uses thereof” (dated 2024).
